Results of unrelated studies side by side (data: NIAID ChemDB).

Shared fields: whole-cell or culture tests; organism: HIV-1; cells: PBMC; measure: EC50

Neighbouring rows are from separate reports. ECn is the concentration giving n% inhibition of infection, replication or growth. Two numbers with a dash give a range or band. Blank or dashed fields: not listed here.

C=CCN(C(=O)NCc1ccc(C(F)(F)F)cc1)C1CCN(C[C@H]2CN(C(=O)C3CCC(F)(F)CC3)C[C@]2(O)c2ccccc2)CC1 ; method: p24 ; value: 0.006–0.05 µM
[N-]=[N+]=N[C@H]1C[C@H](n2cc(C#CI)c(=O)[nH]c2=O)O[C@@H]1CO ; value: 2.3 µM
C=CCN(C(=O)OCc1ccc([N+](=O)[O-])cc1)C1CCN(CC[C@H](CN(C)S(=O)(=O)c2ccccc2)c2ccccc2)CC1 ; strain: YU2 ; method: p24 ; value: <0.2 µM
CC(C)Nc1cccnc1N1CCN(C(=O)c2cc3cc(NS(C)(=O)=O)ccc3[nH]2)CC1 ; strain: HXB2 ; method: p24 ; value: 0.01 µM
CC(C)=CCN1Cc2cccc3[nH]c(=S)n(c23)C[C@@H]1C ; strain: Subtype B isolate ; method: RT activity ; value: 0.09 µM
COc1cccc(C[C@H](NC(=O)c2cccc(O)c2C)[C@H](O)C(=O)N2CSC(C)(C)[C@H]2C(=O)NCc2c(C)cccc2C)c1 ; strain: IIIB ; method: RT activity ; value: 0.001 µM
NC(=O)c1cc2c(-c3ccc4c(c3)CCO4)cncc2s1 ; strain: LAI ; method: p24 / ELISA ; value: 0.291 µM
CCC[C@@]1(CCc2ccccc2)CC(O)=C([C@H](CC)c2cccc(NS(=O)(=O)c3ccc(C(F)(F)F)cn3)c2)C(=O)O1 ; strain: 477 clinical isolates delavirdine-resistant ; method: p24 ; value: <0.04 µM
CC(C)CN(C[C@@H](O)[C@H](Cc1ccccc1)NC(=O)O[C@H]1CCOC1)S(=O)(=O)c1ccc(N)cc1 ; strain: 052-52 PI-resistant ; mutations: PR-L10R M46I L63P A71V V82T I84V ; method: RT activity ; value: 0.535 µM
Nc1ncnc2c1ncn2[C@@H]1C[C@@H](N)[C@H](CO)O1 ; strain: LAI ; method: RT activity ; value: >10 µM
C=CCN(C(=O)CCc1ccccc1)C1CCN(C[C@H]2CN(C(=O)C3CCCC3)C[C@]2(O)c2ccccc2)CC1 ; method: p24 ; value: >0.1 µM
Cc1ccc(-c2ccc3c(c2)C=C(C(=O)Nc2ccc(C[N+](C)(C)C4CCOCC4)cc2)CCC3)cc1 ; strain: MZ ; method: p24 ; value: >20 µM
C=CCN(C(=O)NCc1ccc(S(=O)(=O)N(C)C)cc1)C1CC2CCC(C1)N2C[C@H]1CN(C(=O)C2CCCC2)C[C@]1(O)c1cccc(F)c1 ; method: p24 ; value: <0.005 µM
Nc1ncnc2c1ncn2[C@@H]1C[C@@H](F)[C@H](CO)O1 ; strain: LAI ; method: RT activity ; value: >100 µM
CN(C(=O)OCc1ccccc1)C1CCN(CCC(CN(C)S(=O)(=O)c2ccccc2)c2ccccc2)CC1 ; strain: YU2 ; method: p24 ; value: <25 µM
Nc1nc2c(ncn2[C@H]2C=C[C@@H](CO)O2)c(=O)[nH]1 ; strain: LAI ; method: cytopathic effect / MTT ; value: 0.34 µM
Cc1ccccc1CNC(=O)[C@H]1N(C(=O)[C@@H](O)[C@H](Cc2ccccc2)NC(=O)c2cccc(O)c2C)CSC1(C)C ; strain: IIIB ; method: RT activity ; value: 0.017 µM
C=CCN(C(=O)NCc1ccc(F)cc1)C1CCN([C@H]2CN(C(=O)C3CCCC3)C[C@]2(O)c2ccccc2)CC1 ; method: p24 / ELISA ; value: <50 µM
Cc1cn([C@H]2C[C@H](N=[N+]=[N-])[C@@H](CO)O2)c(=O)[nH]c1=O ; mutations: RT-E89G ; method: p24 ; value: 0.02 µM
CN(CC(CCN1CCC(NC(=O)NCc2ccccc2)CC1)c1ccccc1)S(=O)(=O)c1ccccc1 ; strain: YU2 ; method: p24 ; value: <0.1 µM
COC1N(C2CC(N=[N+]=[N-])C(CO)O2)C(=O)NC(=O)C1(C)Br ; method: p24 ; value: 0.006 µM
CC(C)(C)NC(=O)[C@@H]1C[C@@H]2CCCC[C@@H]2CN1C[C@@H](O)[C@H](Cc1ccccc1)NC(=O)[C@H](CC(N)=O)NC(=O)c1ccc2ccccc2n1 ; strain: ESP2-4 (PR L10V G48M F53L I54V) ; mutations: PR-L10V G48M F53L I54V ; method: p24 ; value: 1.264 µM
Cc1c(N)nc([C@H](CC(N)=O)NC[C@H](N)C(N)=O)nc1C(=O)N[C@H](C(=O)N[C@H](C)[C@@H](O)[C@H](C)C(=O)N[C@H](C(=O)NCCc1nc(-c2nc(C(=O)NCCC[S+](C)C)cs2)cs1)[C@@H](C)O)C(O[C@@H]1O[C@@H](CO)[C@@H](O)[C@H](O)[C@@H]1O[C@H]1O[C@H](CO)[C@@H](O)[C@H](OC(N)=O)[C@@H]1O)c1cnc[nH]1 ; strain: HXB2-D WT ; method: p24 ; value: 0.49 µM
CO[P@](=O)(c1cc(C)cc(/C=C/C#N)c1)c1c(C(N)=O)[nH]c2ccc(Cl)cc12 ; strain: WT (BH10) ; value: 0.0004 µM
CCCc1cc(=O)oc2c3c(c4c(c12)OC(C)(C)C=C4)O[C@H](C)[C@@H](C)[C@@H]3O ; strain: CLADE B ; method: RT activity ; value: 0.2 µM
Cc1cn([C@H]2C[C@H](N=[N+]=[N-])[C@@H](CO)O2)c(=O)[nH]c1=O ; strain: M48 ddI-resistant ; method: RT activity ; value: 0.73 µM
[B-][P@](=O)(OC[C@H]1O[C@@H](n2cc(C)c(=O)[nH]c2=O)C[C@@H]1N=[N+]=[N-])OP(=O)(O)C(F)(F)P(=O)(O)O ; strain: MDR769 Multidrug-resistant isolate ; method: p24 ; value: <0.005 µM
C=C(C)[C@@H]1CC[C@]2(C(=O)NCCCCCCCC(=O)N[C@@H](CC(C)C)[C@H](O)CC(=O)O)CC[C@]3(C)[C@H](CC[C@@H]4[C@@]5(C)CC[C@H](O)C(C)(C)[C@@H]5CC[C@]43C)[C@@H]12 ; strain: QZ4734 ; method: RT activity ; value: <2.65 µM
CCCN(C(=O)OCc1ccc(C(N)=O)cc1)C1CCN(CC[C@H](CN(C)S(=O)(=O)c2ccccc2)c2cccc(Cl)c2)CC1 ; strain: YU2 ; method: p24 ; value: <0.4 µM
Nc1nc(=O)n([C@@H]2CC[C@H](CO)O2)cc1Cl ; strain: LAI ; method: RT activity ; value: >100 µM
Nc1nc(=O)n([C@@H]2CS[C@H](CO)O2)cc1F ; strain: IIIB ; method: RT activity ; value: 0.01 µM
[N-]=[N+]=N[C@H]1C[C@H](n2cc(/C(Br)=C\I)c(=O)[nH]c2=O)O[C@@H]1CO ; value: 1.1 µM
COC(=O)[C@H](C)NP(=O)(OC[C@H]1O[C@@H](n2cc(C)c(=O)[nH]c2=O)C[C@@H]1N=[N+]=[N-])Oc1ccc(F)cc1 ; method: p24 ; value: 0.029 µM
CC(C)c1cc2c(c(O)c1O)[C@@]1(C(=O)O)CCCC(C)(C)C1CC2 ; strain: clinical isolate 1(G MDR X4) ; mutations: PR-L10I V11I T12E I15V L19I  R41K M46L L63P A71T V82A L90M ; value: 0.39 µM
Cc1cccc(C)c1OCC(=O)N[C@@H](Cc1ccccc1)[C@@H](O)C[C@H](Cc1ccccc1)NC(=O)[C@H](C(C)C)N1CCCNC1=O ; strain: 1026-40 PI-resistant ; mutations: PR-L10I M46I I54V L63P A71V V82A L90M ; method: RT activity ; value: 0.398 µM
Cc1cn([C@H]2C[C@H](N=[N+]=[N-])[C@@H](CO)O2)c(=O)[nH]c1=O ; value: 0.016 µM
Cc1cn([C@H]2C[C@H](N=[N+]=[N-])[C@@H](COP(=O)(O)OP(=O)(O)OP(=O)(O)O)O2)c(=O)[nH]c1=O ; strain: MDR769 Multidrug-resistant isolate ; method: p24 ; value: 0.59 µM
C=CCN(C(=O)NCc1ccc(S(=O)(=O)N(C)C)cc1)C1CC2CCC(C1)N2C[C@H]1CN(C(=O)C2CCC(F)(F)CC2)C[C@]1(O)c1cccc(F)c1 ; method: p24 ; value: <0.005 µM
O=C(O)P(=O)(O)O ; strain: 8680 CLADE D CLADE D ; method: p24 ; value: 18.6 µM
Cc1cn([C@H]2C[C@H](N=[N+]=[N-])[C@@H](CO)O2)c(=O)[nH]c1=O ; strain: Clinical isolate ; mutations: TC-2 ; method: ELISA ; value: 0.0188 µM
Nc1nc(NC2CC2)c2ncn([C@H]3C=C[C@@H](CO)O3)c2n1 ; strain: BRU PITT.(RT-L74V) ; mutations: RT-L74V ; method: cytopathic effect / MTT ; value: 9.6 µM
CC(C)(C)NC(=O)[C@@H]1C[C@@H]2CCCC[C@@H]2CN1C[C@@H](O)[C@H](Cc1ccccc1)NC(=O)[C@H](CC(N)=O)NC(=O)OCc1ccccc1 ; strain: A012 POST-AZT ; value: 0.165 µM
Cc1cn([C@H]2C[C@H](N=[N+]=[N-])[C@@H](CO)O2)c(=O)[nH]c1=O ; strain: CLADE E ; method: cytopathic effect / XTT ; setting: clinical isolate ; value: 0.01 µM
CCCN(C(=O)OCc1ccc([N+](=O)[O-])cc1)C1CCN(CC[C@H](CN(C)S(=O)(=O)c2ccccc2)c2ccccc2)CC1 ; strain: YU2 ; method: p24 ; value: <0.1 µM
Cc1ccnc2c1NC(=O)c1cccnc1N2C1CC1 ; strain: SLKA(SI) ; method: RT activity ; value: 0.2 µM
Cc1cn([C@H]2C[C@H](N)[C@@H](CO)O2)c(=O)[nH]c1=O ; method: p24 ; value: 0.35 µM
CCCc1cc(=O)oc2c3c(c4c(c12)OC(C)(C)C=C4)O[C@@H](C)[C@H](C)[C@@H]3O ; strain: CLADE E ; method: RT activity ; value: 0.4 µM
Cc1cn([C@H]2C[C@H](N=[N+]=[N-])[C@@H](CO)O2)c(=O)[nH]c1=O ; strain: 93BR021 ; method: p24 / ELISA ; value: 0.0185 µM
O=C(O)c1cc(O)cc(O)c1N=Nc1ccc(/C=C/c2ccc(N=Nc3c(O)cc(O)cc3C(=O)O)cc2S(=O)(=O)O)c(S(=O)(=O)O)c1 ; strain: CLADE B ; method: p24 ; value: 1.5 µg/mL
Cc1cn([C@H]2C[C@H](N=[N+]=[N-])[C@@H](CO)O2)c(=O)[nH]c1=O ; strain: Subtype B isolate ; method: RT activity ; value: <0.03 µM
C=CCN(C(=O)NCc1ccccc1)C1CCN([C@H]2CN(C(=O)C3CCCC3)C[C@]2(O)c2ccccc2)CC1 ; method: p24 / ELISA ; value: >0.1 µM
Nc1nc(NC2CC2)c2ncn([C@H]3C=C[C@@H](CO)C3)c2n1 ; strain: WEJO Clinical isolates ; method: p24 ; value: 0.06 µM
O=c1[nH]cnc2c1ncn2[C@H]1CC[C@@H](CO)O1 ; strain: 720 ; method: ELISA ; value: 0.6 µM
COC(=O)[C@H](C)NP(=O)(OC[C@H]1O[C@@H](n2cc(C)c(=O)[nH]c2=O)C[C@@H]1N=[N+]=[N-])Oc1ccc(OC)cc1 ; method: p24 ; value: 0.057 µM
CCCN(C(=O)OCc1ccccc1)C1CCN(CCC(CN(C)S(=O)(=O)c2ccccc2)c2ccccc2)CC1 ; strain: YU2 ; method: p24 ; value: <25 µM
Cc1cn([C@H]2C[C@H](N=[N+]=[N-])[C@@H](CO)O2)c(=O)[nH]c1=O ; strain: Clinical isolate ; mutations: A114S/M184V ; method: single cycle / fluorescence ; value: 0.00246 µM
COc1ccc(C[C@H](NC(=O)c2cccc(O)c2C)[C@H](O)C(=O)N2CSC(C)(C)[C@H]2C(=O)NCc2ccccc2C)cc1 ; strain: IIIB ; method: RT activity ; value: 0.0066 µM
[N-]=[N+]=N[C@@H]1C[C@@H](n2cc(F)c(N)nc2=O)O[C@H]1CO ; strain: LAI ; method: RT activity ; value: 0.05 µM
COC(=O)[C@H](C)NP(=O)(OC[C@H]1O[C@@H](n2cc(C)c(=O)[nH]c2=O)C[C@@H]1N=[N+]=[N-])Oc1ccc(Br)cc1 ; method: p24 ; value: 0.006 µM

8 of the rows above, restated:

structure	strain	mutations	method	setting	value
Cc1cn([C@H]2C[C@H](N=[N+]=[N-])[C@@H](CO)O2)c(=O)[nH]c1=O	Subtype B isolate		RT activity		<0.03 µM
O=C(O)P(=O)(O)O	8680 CLADE D CLADE D		p24		18.6 µM
Nc1nc(=O)n([C@@H]2CS[C@H](CO)O2)cc1F	IIIB		RT activity		0.01 µM
C=CCN(C(=O)NCc1ccc(S(=O)(=O)N(C)C)cc1)C1CC2CCC(C1)N2C[C@H]1CN(C(=O)C2CCCC2)C[C@]1(O)c1cccc(F)c1			p24		<0.005 µM
CO[P@](=O)(c1cc(C)cc(/C=C/C#N)c1)c1c(C(N)=O)[nH]c2ccc(Cl)cc12	WT (BH10)				0.0004 µM
CCCN(C(=O)OCc1ccc([N+](=O)[O-])cc1)C1CCN(CC[C@H](CN(C)S(=O)(=O)c2ccccc2)c2ccccc2)CC1	YU2		p24		<0.1 µM
COC(=O)[C@H](C)NP(=O)(OC[C@H]1O[C@@H](n2cc(C)c(=O)[nH]c2=O)C[C@@H]1N=[N+]=[N-])Oc1ccc(Br)cc1			p24		0.006 µM
C=CCN(C(=O)OCc1ccc([N+](=O)[O-])cc1)C1CCN(CC[C@H](CN(C)S(=O)(=O)c2ccccc2)c2ccccc2)CC1	YU2		p24		<0.2 µM